Anti-infective test results gathered from many reports (values: NIAID ChemDB through PubChem).

All rows: toxicity to cultured cells; endpoint: CC50

Rows are shuffled and stem from different studies. CCn is the concentration with n% toxicity to the cells. Blank or dashed fields: not listed here.

smiles	cells	read by	result
CC(=O)C[C@H]1C[C@H]2[C@H]([C@@H]3c4[nH]c5ccccc5c4CCN13)[C@H](O)C13CC/C=C\CCCCN1CC21CC/C=C\CCCNC13	A-594	-	2.5 µg/mL
CS(=O)c1ccc(Cc2cc(C3CCN(C(=O)c4ccc5c(c4)OCO5)CC3)nc(N)n2)cc1	Jurkat cells (PMA-stimulated)	-	>5 µM
Cc1cc(C2CC2)n2nc(S(=O)(=O)Nc3c(C)ccc(Cl)c3C)nc2n1	K562 (CRL-1573)	WST	>128 µg/mL
Cn1ccc2cc(NC(=O)NCCc3ccc4c(n3)NCCC4)ccc21	PBMC	-	0.65 µM
CO/C=C(/C(=O)OC)[C@H](C)[C@@H](O)/C=C/c1ccccc1	HeLa S3	-	>100 µg/mL
O=c1[nH]c(=O)n([C@H]2C[C@H](O)[C@@H](CO)O2)cc1/C=C/Br	RF	cell count	411 µM
COc1ccc2nc3cc(Cl)ccc3c(NCCCCCCNC(=O)[C@@H](N)Cc3cnc[nH]3)c2c1	KB cells	MTS	1.28 µM
CSc1nsc(-c2ccccc2Cl)c1C#N	L929	-	5 µM
Cc1cc(C2CC2)n2nc(S(=O)(=O)Nc3ccccc3C(F)(F)F)nc2n1	HEPG2 (HB-8065)	WST	>128 µg/mL
CO/C=C(/C(=O)OC)[C@H](C)[C@H](/C=C/c1ccccc1)OC(C)=O	HeLa S3	-	50 µg/mL
O=C(NCCc1ccc2c(n1)NCCC2)Nc1ccc(OCCN2CCOCC2)cc1C(F)(F)F	PBMC	-	50 µM
O=c1[nH]c(=O)n([C@H]2C[C@H](O)[C@@H](CO)O2)cc1/C=C/Cl	OMK	cell count	>70 µM
O=C(NCCc1ccccc1)c1ccc2c(c1)CN(c1cc(=O)n(O)c3ncccc13)CC2	HeLa	-	<100 µM
CCOC(=O)[C@@]1(C)CC[C@]2(C)CC[C@]3(C)C(=CC(=O)[C@@H]4[C@@]5(C)CC/C(=N\OCc6ccc(F)c(F)c6)C(C)(C)[C@@H]5CC[C@]43C)[C@@H]2C1	K562	MTT	22.42 µM
Cc1cc(C=O)cc(C)c1Oc1cc(Nc2ccc(C#N)cc2)nc2ccccc12	T-47D	MTT	22.9 µM
CC(=O)c1cc(CC(=O)c2ccccc2)c(=O)n2c1sc1ccccc12	HEF	-	40 µg/mL
CC1(C)CC[C@@]2(C(=O)NCc3cn(CCOCCn4cc(CNC(=O)[C@]56CCC(C)(C)CC5C5=CCC7[C@@]8(C)CC[C@H](O)C(C)(C)C8CC[C@@]7(C)[C@]5(C)C[C@H]6O)nn4)nn3)C(C1)C1=CCC3[C@@]4(C)CC[C@H](O)C(C)(C)C4CC[C@@]3(C)[C@]1(C)C[C@H]2O	293T	resazurin	>100 µM
CCOC(=O)COc1ccc(CN(C(=O)c2ccc(-c3ccc4c(c3)OCO4)cc2)C(C)C)cc1	RAJI	-	>20 µM
CSc1nsc(SC)c1C#N	L929	-	12 µM
CCOC(=O)[C@@]1(C)CC[C@]2(C)CC[C@]3(C)C(=CC(=O)[C@@H]4[C@@]5(C)CC/C(=N\OCc6cccc7ccccc67)C(C)(C)[C@@H]5CC[C@]43C)[C@@H]2C1	K562	MTT	>100 µM
CC1(C)CC[C@@]2(C(=O)NCc3cn(CC(CO)(Cn4cc(CNC(=O)[C@]56CCC(C)(C)CC5C5=CCC7[C@@]8(C)CC[C@H](O)C(C)(C)C8CC[C@@]7(C)[C@]5(C)C[C@H]6O)nn4)[N+]4=N[N+](CNC(=O)[C@]56CCC(C)(C)CC5C5=CCC7[C@@]8(C)CC[C@H](O)C(C)(C)C8CC[C@@]7(C)[C@]5(C)C[C@H]6O)=CC4)nn3)C(C1)C1=CCC3[C@@]4(C)CC[C@H](O)C(C)(C)C4CC[C@@]3(C)[C@]1(C)C[C@H]2O	293T	resazurin	>100 µM
CCOC(=O)CCCCCOc1cccc(CN(C(=O)c2ccc(-c3ccco3)cc2)C(C)C)c1	BJ	-	>20 µM
CCOC(=O)[C@@]1(C)CC[C@]2(C)CC[C@]3(C)C(=CC(=O)[C@@H]4[C@@]5(C)CC/C(=N\OCc6cccc(C#N)c6)C(C)(C)[C@@H]5CC[C@]43C)[C@@H]2C1	K562	MTT	45.59 µM
O=c1cc(Nc2ccccc2N2CCCCC2)c2cccnc2n1O	HeLa	-	<100 µM
COC(=O)N[C@H](C(=O)N[C@H](CCC[C@@H](CO)N(CCC(C)C)S(=O)(=O)c1ccc2ncsc2c1)C1CC1)C(c1ccccc1)c1ccccc1	T lymphoid cells	microscopy	>10 µM
O=C(NCCc1ccc2c(n1)NCCC2)NCC1CCCCC1	PBMC	-	16 µM
CCN([C@H](CO)CCC[C@@H](NC(=O)[C@@H](NC(=O)OC)C(c1ccccc1)c1ccccc1)C1CC1)S(=O)(=O)c1ccc(N)cc1	T lymphoid cells	microscopy	>10 µM
CCOC(=O)[C@@]1(C)CC[C@]2(C)CC[C@]3(C)C(=CC(=O)[C@@H]4[C@@]5(C)CC/C(=N\OCc6ccc(Cl)c(Cl)c6)C(C)(C)[C@@H]5CC[C@]43C)[C@@H]2C1	K562	MTT	30.83 µM
S=c1cc(-c2ccccc2)s[nH]1	HEP-2	-	90 µM
COC(=O)N[C@H](C(=O)N[C@H](CCC[C@@H](CO)N(CC(C)C)S(=O)(=O)c1ccc2ncsc2c1)C1CC1)C(c1ccccc1)c1ccccc1	T lymphoid cells	microscopy	>10 µM
COc1ccc2nc3cc(Cl)ccc3c(NCCNC(=O)[C@@H]3CCCN3)c2c1	KB cells	MTS	0.455 µM
CC(=O)c1cc(NC(=O)c2ccccc2)c(=O)n2c1[nH]c1ccccc12	HEF	-	40 µg/mL
CSc1nsc(-c2ccc[n+](C)c2)c1C#N	HEP-2	-	1250 µM
Cn1ccc(CN2CCn3c(nc(C(=O)NCc4ccc(F)cc4)c(O)c3=O)C23CCOCC3)n1	MT-4	microscopy	>1 µM
O=C(NCc1ccccc1)c1c(O)c2cccnc2n(O)c1=O	HeLa	-	<100 µM
CC[C@@H]1/C=C(\C)C[C@H](C)C[C@H](OC)[C@H]2O[C@@](O)(C(=O)C(=O)N3CCCC[C@H]3C(=O)O[C@H](/C(C)=C/[C@H]3CC[C@H](O)[C@H](OC)C3)[C@H](C)[C@@H](O)CC1=O)[C@H](C)C[C@@H]2OC	KELA	-	54 µg/mL
COC(=O)N[C@H](C(=O)N[C@@H](C)CCC[C@@H](CO)N(CCCF)S(=O)(=O)c1ccc(CO)cc1)C(c1ccccc1)c1ccccc1	T lymphoid cells	microscopy	>10 µM
CSc1nsc(-c2ccccn2)c1C#N	L929	-	50 µM
CCc1cccc(C)c1NS(=O)(=O)c1nc2nc(C)cc(C3CC3)n2n1	K562 (CRL-1573)	WST	>128 µg/mL
O=c1[nH]c(=O)n([C@@H]2O[C@H](CO)[C@@H](O)[C@@H]2O)cc1/C=C/Br	OMK	cell count	>250 µM
CC(C)N(Cc1cccc(OCCCCCC(=O)OC(=O)O)c1)C(=O)c1ccc(-c2cccc([N+](=O)[O-])c2)cc1	RAJI	-	>20 µM
NC1=NC2C(C=CN2CC(CO)CCO)C(=O)N1	OMK	cell count	>200 µM
COc1ccc(C[C@H](N)C(=O)N[C@H]2[C@@H](O)[C@H](n3cnc4c(N(C)C)ncnc43)O[C@@H]2CO)cc1	HEPG2 (HB-8065)	WST	0.36 µg/mL
CCOC(=O)c1cc(CC(=O)c2ccccc2)c(=O)n2c1sc1ccccc12	HEP-2	-	40 µg/mL
Cc1cc(C2CCN(C(=O)c3ccc4c(c3)OCO4)CC2)nc(N)n1	Jurkat cells (PMA-stimulated)	-	>5 µM
O=C(NCCc1ccc2c(n1)NCCC2)NCc1ccc(F)c(Cl)c1	PBMC	-	50 µM
COc1cccc(Cc2cc(C3CCN(C(=O)c4ccc5c(c4)OCO5)CC3)nc(N)n2)c1	Jurkat cells (PMA-stimulated)	-	0.3 µM
COC(=O)N[C@H](C(=O)N[C@@H](C)CCC[C@@H](CO)N(CC(C)C)S(=O)(=O)c1ccc(N)cc1)C(c1ccccc1)c1ccccc1	T lymphoid cells	microscopy	>10 µM
N#Cc1cc(C(=O)O)c(=O)n2c1[nH]c1ccccc12	HEF	-	200 µg/mL
COc1ccc(Cc2cc(C3CCN(C(=O)c4ccc(OC)c(OC)c4)CC3)nc(N)n2)cc1	Jurkat cells (PMA-stimulated)	-	>5 µM
CSc1nsc(-c2c(Cl)cccc2Cl)c1C#N	HEP-2	-	5 µM
O=C(NCc1ccc(F)cc1)c1nc2n(c(=O)c1O)CCN(C(=O)C(F)(F)F)C2	MT-4	microscopy	>1 µM
CSc1nsc(-c2ccc3ccccc3c2)c1C#N	HEP-2	-	20 µM
COC(=O)N1CCn2c(nc(C(=O)NCc3ccc(F)cc3)c(O)c2=O)C1CN(C)C	MT-4	microscopy	>1 µM
CCOC(=O)CCCCCOc1cccc(CN(C(=O)c2ccc(-c3cccc(-c4nnc(C)o4)c3)cc2)C(C)C)c1	HEK 293	-	>20 µM
CN(C(=O)c1ccncc1)c1cc(C(F)(F)F)ccc1N1CCCCC1	Huh7/Rep-Feo-2a	MTS	>30 µM
COC(=O)N[C@@H](Cc1ccccc1Br)C(=O)N[C@@H](C)CCC[C@@H](CO)N(C(C)C)S(=O)(=O)c1ccc(CO)cc1	T lymphoid cells	microscopy	>10 µM
O=c1c(-c2cccc(F)c2)c(O)c2cccnc2n1O	HeLa	-	<100 µM
CN1CCn2c(nc(C(=O)NCc3ccc(F)cc3)c(O)c2=O)C(N(CC2CCCCC2)C(=O)C(=O)N(C)C)C1	MT-4	microscopy	>1 µM
C/C(=N\NC(=O)c1ccc([N+](=O)[O-])cc1)c1cccc(/C(C)=N/NC(=O)c2ccc([N+](=O)[O-])cc2)n1	HL-60	MTT	2.6 µM
COc1ccc2nc3cc(Cl)ccc3c(NCCN3CCNCC3)c2c1	KB cells	MTS	0.165 µM
Nc1nc(C2CCN(C(=O)c3ccc4c(c3)OCO4)CC2)c2ccccc2n1	Jurkat cells (PMA-stimulated)	-	2.6 µM
COc1ccc2nc3cc(Cl)ccc3c(NCCCCNC(=O)[C@@H](N)Cc3cnc[nH]3)c2c1	KB cells	MTS	0.405 µM
CN1CCc2nc(C(=O)NCc3ccc(F)cc3)c(O)c(=O)n2C1=O	MT-4	microscopy	>1 µM
Nc1nc(-c2ccccc2)cc(C2CCN(C(=O)c3ccc4c(c3)OCO4)CC2)n1	Jurkat cells (PMA-stimulated)	-	>5 µM
CSc1nsc(C)c1C#N	HEP-2	-	100 µM
Cc1ccc(CNC(=O)NCCc2ccc3c(n2)NCCC3)cc1	PBMC	-	50 µM
COc1ccc(Cc2cc(C3CCN(C(C)=O)CC3)nc(N)n2)cc1	Jurkat cells (PMA-stimulated)	-	>5 µM
CN(C)C(=O)C(=O)N(C)C1CN(Cc2ccccc2)CCn2c1nc(C(=O)NCc1ccc(F)cc1)c(O)c2=O	MT-4	microscopy	>1 µM